Test results as given in patent US20250152599A1 (priority 2020, published 2025).

Experiments:
[1] = test system: MRC5 cells; assay: Cytotoxicity on MRC5 cells, CellTiter Glo, no virus infection; settings: 3 days
[2] = test system: novel coronavirus (SARS-CoV-2); settings: for FAM Ct value: 48 hours; for EC50 / Antiviral effective concentration on in vitro cell model (significant antiviral effect): Vero cell model
[3] = test system: Vero cells; assay: CCK-8 cell proliferation-toxicity assay on Vero cells; settings: for A450 nm value: 48 hours, replicate wells
[4] = test system: HCoV 229E; settings: for EC50: HCoV 229E in MRC5 cells, 3 days

In the case of `O=[As]c1ccccc1` (stereo not shown), the CC50 ([1]; the second test (second round)) is reported as 0.0689 µM, the “FAM Ct value” ([2]; first round, 1.56 nM, replicate wells, listed as phenylarsine oxide) is reported as 19.02 and 18.28 and the “FAM Ct value” ([2]; first round, 3.12 nM, replicate wells, listed as phenylarsine oxide) is reported as 18.32 and 18.34. The “FAM Ct value” ([2]; first round, 6.25 nM, replicate wells, listed as phenylarsine oxide) was 18.59 and 18.37, the “FAM Ct value” ([2]; first round, 12.5 nM, replicate wells, listed as phenylarsine oxide) was 18.57 and 18.75 and the “FAM Ct value” ([2]; first round, 25 nM, replicate wells, listed as phenylarsine oxide) was 20.35 and 20.02. The “FAM Ct value” ([2]; first round, 50 nM, replicate wells, listed as phenylarsine oxide) was 22.91 and 22.88, the “FAM Ct value” ([2]; first round, 100 nM, replicate wells, larger Ct = less virus, listed as Phenylarsine oxide) was 26.4 and 28.32 and the “FAM Ct value” ([2]; first round, 200 nM) was “Cytotoxicity”. For the same compound, the EC50 ([2]; first round) was 20 nM, the “Antiviral effective concentration on in vitro cell model (significant antiviral effect)” value ([2]; first round, listed as Phenylarsine oxide) was “concentration of 20-100 nM” and the “Antiviral effective concentration on in vitro cell model (significant antiviral effect)” value ([2]; first round, listed as phenylarsine oxide) was 20 to 100 nM. The EC50 ([2]; read-out: EC50 for inhibiting the novel coronavirus, second round) was 19.2 nM, the “FAM Ct value” ([2]; second round, 6.25 nM, replicate wells, listed as Phenylarsine oxide) was 14.79 and 14.96 and the “FAM Ct value” ([2]; second round, 25 nM, replicate wells, listed as Phenylarsine oxide) was 15.94 and 16.51. The “FAM Ct value” ([2]; second round, 50 nM, replicate wells, listed as Phenylarsine oxide) was 17.19, the “FAM Ct value” ([2]; second round, 100 nM, replicate wells, listed as Phenylarsine oxide) was 20.31 and 19.24 and the “FAM Ct value” ([2]; second round, 200 nM, replicate wells, listed as Phenylarsine oxide) was 27.51 and 29.48. For the same compound, the “FAM Ct value” ([2]; second round, 400 nM, replicate wells, listed as Phenylarsine oxide) was 26.64 and 27.19, the “FAM Ct value” ([2]; second round, 800 nM, replicate wells, listed as Phenylarsine oxide) was 31.52 and 28.87 and the A450 nm value ([3]; first round, 1.56 nM, listed as phenylarsine oxide) was 1.77 and 1.94. For the same compound, the A450 nm value ([3]; first round, 3.12 nM, listed as phenylarsine oxide) was 1.75 and 2.06, the A450 nm value ([3]; first round, 6.25 nM, listed as phenylarsine oxide) was 1.79 and 1.86 and the A450 nm value ([3]; first round, 12.5 nM, listed as phenylarsine oxide) was 1.75 and 1.95. For the same compound, the A450 nm value ([3]; first round, 25 nM, listed as phenylarsine oxide) was 1.80 and 1.95, the A450 nm value ([3]; first round, 50 nM, listed as phenylarsine oxide) was 1.90 and 1.98 and the A450 nm value ([3]; first round, 100 nM, listed as phenylarsine oxide) was 1.71 and 1.86. For the same compound, the Cell viability % ([3]; first round, 200 nM) was 50%, the cell death ([3]; first round, 200 nM and above) was 50% and the A450 nm value ([3]; first round, 200 nM, listed as phenylarsine oxide) was 1.00 and 0.68. For the same compound, the Cell viability % ([3]; first round, 100 to 1.56 nM (text: below 100 nM), listed as Phenylarsine oxide) was “greater than 90%”, the Cell viability % ([3]; first round, 100 to 1.56 nM (text: below 100 nM), listed as phenylarsine oxide) was “cell viability greater than 90%” and the CC50 ([3]; first round, Vero cells) was over 200 nM. The cell viability ([3]; second round, 100 nM and below) was “greater than 90%”, the cell death rate ([3]; second round, 400 nM and above) was at least 50% and the CC10 ([3]; second round, Vero cells) was 100 nM. For the same compound, the CC50 ([3]; second round, Vero cells) was 380 nM, the “SI (CC50/EC50)” value ([4]; the first test) was 4.64 and the EC50 ([4]; the first test (first round)) was 55.4 nM. The “SI (CC50/EC50)” value ([4]; the second test) was 1.86 and the EC50 ([4]; the second test (second round)) was 37 nM.
`O=[As]c1ccc(NC(=O)C2CCC2)cc1` (stereo not shown) showed a CC50 ([1]; the first test (first round)) of over 0.8 µM, a CC50 ([1]; the second test (second round)) of 7.64 µM and an EC50 ([4]; the first test (first round)) of over 200 nM. For the same compound, the EC50 ([4]; the second test (second round)) was over 40000 nM.
`CC(C)CC(=O)Nc1ccc([As]=O)cc1` (stereo not shown) was tested, and the CC50 ([1]; the first test (first round)) was over 0.8 µM, the CC50 ([1]; the second test (second round)) was 6.24 µM and the EC50 ([4]; the first test (first round)) was over 200 nM. For the same compound, the EC50 ([4]; the second test (second round)) was over 40000 nM.

Several values for one entry are separate records, joined by “and”; a condition that tells them apart may be missing. Identical values can stand only once. Like-named read-outs stand apart in the source and are kept apart here.
